Reference: PubChem BioAssay AID540267 (National Center for Advancing Translational Sciences (NCATS), 2011)
This is a selection; strong and weak results do not stand in their true shares. Some salts and complexes are drawn in separate pieces, as the source files them; their charges need not balance. Active and inactive are the calls of the source. Cut-off read from the data, not from the text of the source: active = activity change below about -80%; inconclusive = between about -30% and that limit; inactive = weaker than that.

Experiment: Small Molecules that selectively kill Giardia lamblia: qHTS;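 note: parasites exposed to compound for two days anaerobically before the ATP read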
Details: Giardia lamblia trophozoite viability; at 7.66 µM; active compounds read low
Excerpt: Giardia lamblia is a human pathogen afflicting impoverished nations, and the most common cause of outbreaks of diarrhea in the United States. Giardia has been classified by the CDC as a category B bioterrorism organism. The favored anti giardiasis drugs in the US are metronidazole or tinidazole, compounds that have undesirable side effects. Moreover, increasing resistance to drug regimes and recurrence are a concern. It is thus clear that alternative drug treatments are needed.
In a collaboration between the University of Maryland, College Park and the NIH Chemical Genomics Center, a bioluminescence Giardia viability assay based on the trophozoites' ATP content was developed. This assay is suitable for high throughput screening, and miniaturized the assay for compound screening in 1536-well plates. The goal of the project is to screen the Molecular Libraries Small Molecule Repository (MLSMR) for compounds that selectively kill Giardia trophozoites.
NIH Chemical Genomics Center [NCGC]
NIH Molecular Libraries Probe Centers Network [MLPCN]
Assay Submitter (PI): Osnat Herzberg, University of Maryland, College Park, MD.
1. Dispense 2 ul/well media
2. Dispense 23 nl/well compounds
3. Dispense 4 ul/well Giardia trophozoites at a concentration of 100 cells/well
4. Incubate 48 hrs at 37 deg C anaerobically
5. Dispense 4 ul/well ATPLite 1-Step Luminescence assay kit
6. Incubate 15-30 min at room temperature
7. Read luminescence signal on ViewLux plate reader
% is set by controls: 0 for no effect and ±100 for the full control effect.

SMILES | activity change
O=C(NCC1(N2CCCCC2)CCCCC1)c1cccc(C(F)(F)F)c1 | inactive: -18.4%
COc1cc(C(=O)NCC2(N3CCCCC3)CCCCC2)ccc1OC(F)F | inactive: -6.83%
O=C(NCC1(N2CCOCC2)CCCCC1)c1cc(=O)[nH]c2ccccc12 | inactive: 7.51%
CN1CCN(CCOC(=O)C(O)(c2ccccc2)c2ccccc2)CC1 | inactive: -11%
COc1ccc(NC2CCN(C(=O)OC(C)(C)C)CC2)cc1 | inactive: 12.6%
CC(C)c1ccc(C(=O)NCC2(N3CCOCC3)CCCCC2)cc1 | inactive: 9.91%
O=C(NCC1(N2CCCCC2)CCCCC1)c1ccc(OC(F)F)cc1 | inactive: 5.8%
CCN1CCC(Nc2ccc(Cl)cc2)CC1 | inactive: 6.91%
N#CC1(Nc2ccccc2)CCN(CCc2ccccc2)CC1 | inactive: 1.65%
O=C(NCC1(N2CCCCC2)CCCCC1)c1cccc([N+](=O)[O-])c1 | inactive: -22.1%
CSc1ccc(C(=O)NCC2(N3CCOCC3)CCCCC2)cc1 | inactive: -29.1%
O=C(OC1CN2CCC1CC2)c1ccc([N+](=O)[O-])cc1 (stereo unspecified) | inactive: 1.12%
CN1CCC(Nc2cccc(F)c2)CC1 | inactive: 21.9%
O=C(NCC1(N2CCCCC2)CCCCC1)c1cncc(Br)c1 | inactive: 6.28%
COc1ccc2c(c1O)-c1c(O)c(OC)cc3c1[C@H](C2)[N+](C)(C)CC3.O=[N+]([O-])c1cc([N+](=O)[O-])c([O-])c([N+](=O)[O-])c1[O-] | inactive: -19.3%
CCCOc1ccc(C(=O)NCC2(N(C)C)CCCCC2)cc1OC | inactive: 5.69%
CC(C)c1ccc(NC2CCN(C(=O)OC(C)(C)C)CC2)cc1 | inactive: -9.47%
COc1ccc(CN(CCCl)CCCl)cc1Cl | inactive: -2.76%
O=[N+]([O-])c1cc([N+](=O)[O-])c(OC2CCCCC2O)c([N+](=O)[O-])c1 (stereo unspecified) | inactive: 7.23%
CN(C)c1cccc(C(=O)NCC2(N3CCCCC3)CCCCC2)c1 | inactive: -11.3%
COc1cc(OC)c(C(=O)NCC2(N(C)C)CCCCC2)cc1OC | inactive: -12%
O=C(NCC1(N2CCOCC2)CCCCC1)c1cc(F)c(F)cc1Cl | inactive: 20.6%
O=C(NCC1(N2CCCCC2)CCCCC1)c1ccc(Cl)nc1 | inactive: 19.8%
Cc1cc(C)cc(N(C(=O)c2ccccc2)C2CCN(C(=O)OC(C)(C)C)CC2)c1 | inactive: -12.1%
O=C(NCC1(N2CCOCC2)CCCCC1)c1cc2ccccc2o1 | inactive: 11.4%
O=C(NCC1(N2CCCCC2)CCCCC1)c1ccc(Cl)s1 | inactive: 14%
